The target in assay [1] is JRFL SOSIP trimer (HIV-1 subtype B, truncated at residue 663), negatively selected (HIV-1 subtype B strain JRFL). Description: negative-stain EM; unliganded negatively selected SOSIP trimers; 2% uranyl formate; 2D class averages and 3D reconstructions.
Assay [2] has the same target. Description: native gel or EMSA. Background: Mobility shift assays separate free from complexed probe on a gel.
The target in assay [3] is 16055 SOSIP trimer (HIV-1 subtype C, truncated at residue 663), negatively selected (HIV-1 subtype C strain 16055). In words: negative-stain EM; unliganded negatively selected SOSIP trimers; 2% uranyl formate; 2D class averages and 3D reconstructions.
The target is the same in assay [4]. In words: native gel or EMSA.

The stoichiometry N is the number of molecules, sites or subunits per partner or assembly.

As for “JRFL SOSIP trimer (HIV-1 subtype B, truncated at residue 663), negatively selected (complex)”, the stoichiometry N in assay [1] and in assay [2] was 3 each time.

With “16055 SOSIP trimer (HIV-1 subtype C, truncated at residue 663), negatively selected (complex)”, the stoichiometry N in assay [3] and in assay [4] was 3 each time.
